Test results reported in ChEMBL document CHEMBL1122575, “Dependence of beta-lactamase stability on substructures within beta-lactam antibiotics” (J Med Chem, 1984).

Key:
Escherichia coli [1] = test: Compound was evaluated for the antibacterial activity against Escherichia coli (RTEM- organism); 0.8/1.6
Escherichia coli [2] = test: Compound was evaluated for the antibacterial activity against Escherichia coli (RTEM+ organism); 12.5/50

CC(C)(O/N=C(/C(=O)N[C@H]1CN(OP(C)(=O)O)C1=O)c1csc(N)n1)C(=O)O
MIC (Escherichia coli [1]): 0.8 mg/L (≈ 1.84 µM)
MIC (Escherichia coli [2]): 12.5 mg/L (≈ 28.7 µM)

Values after ≈ are worked out from the molar mass of the structure shown.
